Data taken from PMC11982464, “Structural insight into the catalytic mechanism of the bifunctional enzyme L-fucokinase/GDP-fucose pyrophosphorylase” (The Journal of Biological Chemistry, 2025).

These substances were tested on C[C@@H]1O[C@H](OP(=O)(O)O)[C@@H](O)[C@H](O)[C@@H]1O (assay: purified protein). Conditions: GDP-fucose pyrophosphorylase site, co-substrate GTP, 50 mM Hepes pH 7.5, 2 mM MgCl2.

Compared with “FKP-FL (L-fucokinase/GDP-β-L-fucose pyrophosphorylase, full length) (Bacteroides fragilis; H168A)”, “FKP-FL (L-fucokinase/GDP-β-L-fucose pyrophosphorylase, full length) (Bacteroides fragilis; D31A)” is 8.9-fold lower in Km: 720 ± 130 µM for the first, 81 ± 9 µM for the second.

Going from “FKP-FL (L-fucokinase/GDP-β-L-fucose pyrophosphorylase, full length) (Bacteroides fragilis; H272A)” to “FKP-FL (L-fucokinase/GDP-β-L-fucose pyrophosphorylase, full length) (Bacteroides fragilis; H73A)”, the Km falls from 530 ± 82 µM to 50 ± 7 µM (11-fold).

Going from “FKP-FL (L-fucokinase/GDP-β-L-fucose pyrophosphorylase, full length) (Bacteroides fragilis; R80A)” to “FKP-FL (L-fucokinase/GDP-β-L-fucose pyrophosphorylase, full length) (Bacteroides fragilis; K187A)”, the Km rises from 200 ± 19 µM to 1200 ± 200 µM (6-fold).

“FKP-FL (L-fucokinase/GDP-β-L-fucose pyrophosphorylase, full length) (Bacteroides fragilis; H168A)” and “FKP-FL (L-fucokinase/GDP-β-L-fucose pyrophosphorylase, full length) (Bacteroides fragilis; H272A)” are within 1.5-fold of each other in kcat: 0.027 s⁻¹ for the first, 0.034 s⁻¹ for the second.

Going from “FKP-FL (L-fucokinase/GDP-β-L-fucose pyrophosphorylase, full length) (Bacteroides fragilis; H73A)” to “FKP-FL (L-fucokinase/GDP-β-L-fucose pyrophosphorylase, full length) (Bacteroides fragilis; R80A)”, the kcat falls from 0.32 s⁻¹ to 0.012 s⁻¹ (27-fold).

With “FKP-FL (L-fucokinase/GDP-β-L-fucose pyrophosphorylase, full length) (Bacteroides fragilis; K187A)” the kcat was 0.15 s⁻¹.

First: FKP-FL (L-fucokinase/GDP-β-L-fucose pyrophosphorylase, full length) (Bacteroides fragilis; H168A)
Second: FKP-FL (L-fucokinase/GDP-β-L-fucose pyrophosphorylase, full length) (Bacteroides fragilis; H272A)
The kcat/Km of the first is 1.7-fold lower: 38 M⁻¹ s⁻¹ for the first, 64 M⁻¹ s⁻¹ for the second.

First: FKP-FL (L-fucokinase/GDP-β-L-fucose pyrophosphorylase, full length) (Bacteroides fragilis; H73A)
Second: FKP-FL (L-fucokinase/GDP-β-L-fucose pyrophosphorylase, full length) (Bacteroides fragilis; R80A)
The kcat/Km of the first is 100-fold higher: 6400 M⁻¹ s⁻¹ for the first, 62 M⁻¹ s⁻¹ for the second.

Substance “FKP-FL (L-fucokinase/GDP-β-L-fucose pyrophosphorylase, full length) (Bacteroides fragilis; K187A)” has a kcat/Km of 130 M⁻¹ s⁻¹.

The substances below were run on Nc1ncnc2c1ncn2[C@@H]1O[C@H](COP(=O)(O)OP(=O)(O)OP(=O)(O)O)[C@@H](O)[C@H]1O (assay: purified protein). Conditions: fucokinase site, Hill fit, co-substrate L-fucose, 50 mM Hepes pH 7.5, 2 mM MnCl2.

First: FKP-FL (L-fucokinase/GDP-β-L-fucose pyrophosphorylase, full length) (Bacteroides fragilis; D601A)
Second: FKP-FL (L-fucokinase/GDP-β-L-fucose pyrophosphorylase, full length) (Bacteroides fragilis; W599A)
The Km of the first is 3.7-fold higher: 3400 ± 500 µM for the first, 920 ± 200 µM for the second.

“FKP-FL (L-fucokinase/GDP-β-L-fucose pyrophosphorylase, full length) (Bacteroides fragilis; D601A)” and “FKP-FL (L-fucokinase/GDP-β-L-fucose pyrophosphorylase, full length) (Bacteroides fragilis; W599A)” are within 1.5-fold of each other in kcat: 0.26 s⁻¹ for the first, 0.28 s⁻¹ for the second.

First: FKP-FL (L-fucokinase/GDP-β-L-fucose pyrophosphorylase, full length) (Bacteroides fragilis; D601A)
Second: FKP-FL (L-fucokinase/GDP-β-L-fucose pyrophosphorylase, full length) (Bacteroides fragilis; W599A)
The kcat/Km of the first is 3.8-fold lower: 80 M⁻¹ s⁻¹ for the first, 300 M⁻¹ s⁻¹ for the second.
